Assay results from paper PMC5290737, “Surface mediated cooperative interactions of drugs enhance mechanical forces for antibiotic action” (Scientific Reports, 2017).

Test system: vancomycin-susceptible receptor (VSR)
Test: Cantilever surface stress assay, antibiotic binding to surface-bound VSR
Details: equation (2)
Source text: To probe different pathways of signal-transduction central to the efficacy of recognition mechanisms and therapeutic agents, we used cantilever force-based technology. Because of its nanometre strain sensitivity, this technology can directly measure the smallest changes in mechanical strain caused by specific antibiotic binding. The principles of force transduction and measurements are well established[18][19][20] and many studies focused on cantilever sensors have been published. Unlike conventional methods such as 1H–NMR spectroscopy, enzyme-linked immunosorbent assays (ELISA)[29] or surface plasmon resonance (SPR)[30] which measure optical signatures of chemical binding, cantilever technology has the capacity to resolve forces at the level of individual hydrogen bonds, making it uniquely suited to provide important insight into force transduction mechanisms, such as cell wall strain in response to antibiotic binding. […]
Here, Ksurf is raised to the power n to ensure that it maintains the dimension of concentration as n varies. […] The calculated Ksurf for Ori binding to VSR is 40 ± 10 nM, which is 25 times stronger than for Van where Ksurf is 1.0 ± 0.3 μM. […]

ristomycin
Hill coeff. (n): 0.6 ± 0.3
